Anti-infective test results gathered from many reports (values: NIAID ChemDB through PubChem).

All rows: tests in culture; agent: Herpes simplex virus 1; measure: EC50

An empty or dashed field is not shown. Neighbouring rows are from separate reports. ECn is the concentration giving n% inhibition of infection, replication or growth.

compound | cells | strain | changes | method | value
Nc1ncnc2c1ncn2[C@@H]1C[C@H](CO)[C@@H](O)[C@@H]1O | VERO | WT-34 |  | plaque count | 10 µM
CCc1cn([C@H]2C[C@H](O)[C@@H](COP(=O)(O)O)O2)c(=O)[nH]c1=O | PRK | McIntyre |  | cytopathic effect | 1 µg/mL
O=c1[nH]c(=O)n([C@H]2C[C@H](O)[C@@H](COP(=O)([O-])OP(=O)([O-])OC[C@@H]3OC(O)[C@H](O)[C@H](O)[C@H]3O)O2)cc1I | PRK | F |  | cytopathic effect | 0.4 µg/mL
CN(C)c1nc2c(=O)[nH]c(N)nc2n1COCCO | PRK |  |  | cytopathic effect | 30 µg/mL
Nc1nc2c(ncn2CC(CO)CCO)c(=O)[nH]1 | HEL | C42 |  | plaque count | 0.2 µM
Nc1nc2c(ncn2CC(CO)OCP(=O)(O)O)c(=O)[nH]1 | WI-38 | Schooler |  | plaque count | 0.9 µM
Nc1nc2c(ncn2CCC(O)CO)c(=O)[nH]1 | VERO | 7935-72 |  | plaque count | 4 µM
Cc1cn([C@@H]2C[C@H](OC(C(=O)O)P(=O)(O)O)[C@@H](O)[C@H]2O)c(=O)[nH]c1=O | HEL | KOS | TK-deficient acyclovir-resistant | cytopathic effect | >250 µM
O=c1[nH]c(=O)n(COCCO)cc1/C=C/Br | PRK |  |  | cytopathic effect | >400 µg/mL
O=C(OC1OC2COC(=O)c3cc(Oc4c(C(=O)OC5C(O)OC6COC(=O)c7cc(O)c(O)c(O)c7-c7c(cc(O)c(O)c7O)C(=O)OC6C5OC(=O)c5cc(O)c(O)c(O)c5)cc(O)c(O)c4O)c(O)c(O)c3-c3c(cc(O)c(O)c3O)C(=O)OC2C(OC(=O)c2cc(O)c(O)c(O)c2)C1O)c1cc(O)c(O)c(O)c1 | CV-1 | HF |  | plaque count | 0.036 µg/mL
Nc1ncnc2c1ncn2[C@@H]1O[C@H](COP(=O)(O)O[C@@H]2[C@H](O)[C@@H](COP(=O)(O)O[C@@H]3[C@H](O)[C@@H](COP(=O)(O)OP(=O)(O)OP(=O)(O)O)O[C@H]3n3cnc4c(N)ncnc43)O[C@H]2n2cnc3c(N)ncnc32)[C@@H](O)[C@H]1O | E6SM |  |  | cytopathic effect | >200 µg/mL
O=c1[nH]cnc2c1ncn2COCCO | PRK |  |  | cytopathic effect | >400 µg/mL
O=C(OC[C@H]1O[C@@H](OC(=O)c2cc(O)c(O)c(O)c2)[C@H](O)[C@@H](OC(=O)c2cc(O)c(O)c(O)c2)[C@@H]1O)c1cc(O)c(O)c(O)c1 | VERO | HF |  | plaque count | 0.086 µg/mL
Nc1nc2c(ncn2COC2COP(=O)(O)OC2)c(=O)[nH]1 | MRC-5 | KOS |  | plaque count | 18 µM
O=c1[nH]c(=O)n(COCCO)cc1[N+](=O)[O-] | PRK |  |  | cytopathic effect | >400 µg/mL
OC[C@H]1CC(n2cnc3c(NC4CC4)ncnc32)C[C@@H]1CO | E6SM | KOS |  |  | >100 µg/mL
O=C(NCc1ccc(Cl)cc1)c1c[nH]c2c(F)cc(CCCO)cc2c1=O |  |  |  | plaque count | 4.5 µM
CN(C)c1ncnc2c1ncn2COCCO | PRK |  |  | cytopathic effect | >400 µg/mL
O=C(O)C(O[C@@H]1C=C[C@H](n2cc(F)c(=O)[nH]c2=O)C1)P(=O)(O)O | HEL | KOS |  | cytopathic effect | >250 µM
Nc1nc2c(ncn2[C@H]2CO[C@@H](CO)C2)c(=O)[nH]1 | E6SM | VMW1837 (TK-) |  | cytopathic effect | 150 µg/mL
O=C(NCc1ccc(Cl)cc1)c1c[nH]c2c(F)cccc2c1=O |  | F891C |  |  | 3.3 µM
O=c1[nH]c(=O)n([C@H]2C[C@H](O)[C@@H](COP(=O)(O)O)O2)cc1I | PRK | KOS |  | cytopathic effect | 0.2 µg/mL
Nc1nc(Cl)c2ccn([C@H]3CO[C@@H](CO)C3)c2n1 | E6SM | KOS |  | cytopathic effect | >400 µg/mL
O=C[C@H](OC(=O)c1cc(O)c(O)c(O)c1)[C@@H](OC(=O)c1cc(O)c(O)c(O)c1)[C@@H]1OC(=O)c2cc(O)c(O)c(O)c2-c2c(cc(O)c(O)c2O)C(=O)OC[C@H]1O | CV-1 | HF |  | plaque count | 0.036 µg/mL
c1ccc2nc3c(nc2c1)c1ccccc1n3Cc1nccs1 | A549 | C42 |  | ELISA | >30 µM
Nc1nc2c(ncn2COCCO)c(=O)[nH]1 | VERO | RE6 |  | plaque count | 0.5 µM
CC(=O)OCCOCn1cnc2c(Cl)nc(Cl)nc21 | PRK |  |  | cytopathic effect | 2 µg/mL
Nc1nc2c(ncn2CC(CO)CCO)c(=O)[nH]1 | HL | C42 |  |  | 1 µM
Nc1nc(=O)ccn1COCCO | PRK |  |  | cytopathic effect | >400 µg/mL
C=Cc1cn(OCCO)c(=O)[nH]c1=O | VERO | KOS (TK+) |  | plaque count | >25 µg/mL
O=c1[nH]c(=O)n(C2C[C@H](CO)[C@@H](CO)C2)cc1I | E6SM | KOS (TK-) |  |  | >100 µg/mL
O=C(O)CP(=O)(O)O | MEF | Wilson |  | plaque count | 4.1 µg/mL
Nc1nc2c(ncn2CC[C@@H](O)CO)c(=O)[nH]1 | VERO | 7935-72 |  | plaque count | 1.2 µM
CNc1nc2c(=O)[nH]c(N)nc2n1COCCO | PRK |  |  | cytopathic effect | 7 µg/mL
COc1c2c(cc3oc(=O)c(-c4ccc(O)cc4O)cc13)OC(C)(CO)CC2 | CV-1 | HF |  | plaque count | >10 µg/mL
Nc1ncnc2c1ncn2[C@@H]1O[C@H](COP(=O)([O-])OP(=O)([O-])OC[C@@H]2OC(O)[C@H](O)[C@H](O)[C@H]2O)[C@@H](O)[C@H]1O | E6SM |  |  | cytopathic effect | 30 µg/mL
Cc1nc2c(=O)[nH]c(N)nc2n1COCCO | PRK |  |  | cytopathic effect | 0.5 µg/mL
O=c1[nH]c(=O)n([C@H]2CC[C@@H](CO)O2)cc1/C=C/Br | PRK | F |  | cytopathic effect | 0.007 µg/mL
O=c1[nH]c(=O)n([C@@H]2O[C@H](CO)[C@@H](O)[C@@H]2O)cc1/C=C/Br | HEL | VR-3 |  | plaque count | 0.08 µM
CCCc1cn([C@H]2C[C@H](O)[C@@H](COP(=O)(O)O)O2)c(=O)[nH]c1=O | HEP-2 | KOS |  | cytopathic effect | 0.8 µg/mL

4 of the rows above, restated:

compound	cells	strain	changes	method	value
CN(C)c1nc2c(=O)[nH]c(N)nc2n1COCCO	PRK			cytopathic effect	30 µg/mL
O=c1[nH]c(=O)n(COCCO)cc1[N+](=O)[O-]	PRK			cytopathic effect	>400 µg/mL
CNc1nc2c(=O)[nH]c(N)nc2n1COCCO	PRK			cytopathic effect	7 µg/mL
Cc1cn([C@@H]2C[C@H](OC(C(=O)O)P(=O)(O)O)[C@@H](O)[C@H]2O)c(=O)[nH]c1=O	HEL	KOS	TK-deficient acyclovir-resistant	cytopathic effect	>250 µM